Test results published in publication PMC9207808 (ACS Chemical Biology, 2022).

Assay: general procedure: Fmoc solid-phase peptide synthesis; Preloaded Wang resins; Fmoc-Rink Amide MBHA resin; DIC / Oxyma Pure
Conditions: whole synthesis, 220 nm

Substance	final LC-MS purity
Ac-WMDDEFAAIMAVHANELRELADK-OH	97%
Ac-WMDDEFAAIMAVHGNELRALADK-OH	94%
Ac-WMDDEFAAIMAVHGNELRELADA-OH	93%
Ac-WMDDEFAAIMAVHGNELAELADK-OH	97%
Ac-WMDDEFAAIMAVHGNEARELADK-OH	99%
Ac-WMDDEFAAIAAVHGNELRELADK-OH	99%
Ac-WMDDEFAAIMAVH-NH2	99%
Ac-WMDDEAAAIMAVHGNELRELADK-OH	99%
Ac-WMADEFAAIMAVHGNELRELADK-OH	99%
Ac-WMDDEFAAIMAVHGNALRELADK-OH	97%
Ac-WADDEFAAIMAVHGNELRELADK-OH	99%
Ac-WMDDEFAAIMAAHGNELRELADK-OH	95%
Ac-WNELRELADK-OH	99%
Ac-WMDDEFAAIMAVHGNELRELADK-OH	99%
Ac-WMDDEFAAIMAVHGNELRELAAK-OH	98%
Ac-FAAIMAVHGNELREL-OH	99%
Ac-EFAAIMAVHGNELRELADK-OH	98%
Ac-WMDDEFAAIMAVHGAELRELADK-OH	96%
Ac-WMDDEFAAAMAVHGNELRELADK-OH	99%
Ac-EFAAIMAVHGNELRELA-OH	99%
Ac-WMDAEFAAIMAVHGNELRELADK-OH	98%
Ac-WMDDEFAAIMAVHGNELRELA-OH	99%
Ac-WMDDAFAAIMAVHGNELRELADK-OH	97%
Ac-WMDDEFAAIMAVAGNELRELADK-OH	96%
Ac-WMDDEFAAIMAVHGNELREAADK-OH	97%
